Primary screen of a compound library

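Growth of Mycobacterium tuberculosis over 3 days (7H9 medium with glucose and tyloxapol); the read-out is not stated. Compounds at 50 µM. Higher reads as more growth inhibition (inferred: compounds with an IC50 in retests scored well above the rest). Of about 69,000 compounds tested this way, about 760 (1.1%) reached 50% or more in at least one test.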

Results are given as percent effect. How 0% and 100% were set is not recorded. Most values in the screen are low, and negative values occur. The entries come from a sample that favours strong results. Two or more numbers in one place are separate tests of the same structure; such repeats can differ widely.

structure,percent effect
Cc1ccc(CCC(=O)N2CCCC(c3cc(C(N)=O)[nH]n3)C2)cc1 (stereo unspecified),-8.961%
Cc1noc(CNc2ccc(C(=O)N3CCCC(C)C3)cc2C)n1 (stereo unspecified),5.978%
COCCC(=O)N1CCC(Nc2ncc(Br)cn2)CC1,8.3%
Cc1noc(C)c1S(=O)(=O)N1CCc2nc(C3CCNCC3)ncc2C1.Cl,-2.796%
Cc1nn(C)c(C)c1C1CCCN1Cc1cccc(OCC(N)=O)c1 (stereo unspecified),-16.6%
COC(C)(C)CC(C)NC(=O)Nc1ccccn1 (stereo unspecified),-12.63%
Cc1cc(C2CCC2)nc(N(C)Cc2cnccn2)n1,21.75%
COc1ccccc1OC1CN(C(=O)Cc2c(C)nc(N)nc2C)C1,-0.9546%
O=C(NC[C@H]1CC[C@H](c2ccnc3ncnn32)CC1)C1CC1,68.63%
CC(=O)NC1CC(C)(C)Cc2c1cnn2-c1cccc(F)c1 (stereo unspecified),7.831% & 30%
O=C(NCC(CO)Cc1ccc(Cl)cc1)c1ccncc1F (stereo unspecified),4.312% & -10.05%
COc1ccc(C(=O)NCc2ccco2)nn1,53.95%
CC(C)C(=O)Nc1cccc(C(=O)Nc2ccccn2)c1,-17.87% & 8.144%
Cc1ccc(C(N)c2cccs2)cc1 (stereo unspecified),-32.98%
OCCOCCNCC1(c2ccc(F)cc2)CCOC1 (stereo unspecified),31.64%
CCOc1ccc2nc(CN3CCC(CNC(C)=O)C3)ccc2c1 (stereo unspecified),-1.281%
Cc1n[nH]c(C2CN(C(=O)c3cnc[nH]3)CCO2)n1 (stereo unspecified),-23.23%
O=C(NCCc1ccn(-c2ccccc2)n1)N1CCCC(O)C1 (stereo unspecified),23.82%
O=C(Nc1cccnc1)C1=Cc2ccccc2OC1,16.26% & -8.468%
CC(=O)N(c1ccc(C)cc1)c1nc(CN2CCCCC2C)cs1 (stereo unspecified),-14.68%
OCCn1nccc1C1CCN(CCOc2cccc(F)c2)CC1,13.91%
CCC1c2ccsc2CCN1C(=O)NCc1cc(C)on1 (stereo unspecified),-17.95%
O=C(CNC(=O)C1(c2ccc(F)cc2F)CCC1)Nc1ccccn1,15.32% & 3.834%
CCN(C)c1ccc(C(=O)NCCCc2ccccn2)cn1,5.883%
COc1cc(C)sc1C(=O)NCCC(=O)N(C)c1ccccc1,-0.2156% & -2.982%
[H][C@]12CC[C@]([H])(CN(c3ncnc4ccsc34)C1)N(CC1CC1)C2=O,21.41% & 112.2%
Cc1cnn(CCNCC(O)c2ccc3c(c2)OCCO3)c1 (stereo unspecified),-34.93%
CC(NC(=O)Cn1cccn1)c1ccc2c(c1)OCCCO2 (stereo unspecified),-30.51%
Cn1c(C2CC2)nc2c1CCN(CCOc1ccc(C#N)cc1)C2,17.79%
Cc1cc(CNC(=O)COc2ccccc2F)c(C)o1,11.35% & 18.32%
NC(=O)NC(=O)CCN1CCCC1c1cccc2c1OCCO2 (stereo unspecified),13.19%
COC(=O)c1ccc(CN(C(C)C)C(C)C)o1.Cl,-8.134% & -5.146%
Cc1nc(CN2CCCC(CCc3ccc(F)c(F)c3)C2)c[nH]1 (stereo unspecified),46.73%
c1cncc(NCCNC2CCSC2)c1 (stereo unspecified),-29.33%
O=C(O)C(F)(F)F.O=C(c1c[nH]cn1)N1CCC(F)(F)C2(CCN(c3cccc(F)c3)C2)C1 (stereo unspecified),63.92% & 8.045%
CCc1ccc(C(=O)O)cc1S(=O)(=O)Nc1ccc2c(c1)OCCO2,12.6%
COC(=O)c1ccc(-c2noc(CN(CCO)Cc3cccs3)n2)cc1,75.78%
CC(C)CSCCCNC(=O)C1CCC1,-10.33%
CN1CCCCCC1C(=O)NCCCn1ncc2ccccc21 (stereo unspecified),-0.5853%
CCS(=O)(=O)CCNC1CCN(c2nc3ccc(Cl)cc3s2)CC1,41.84%
Cc1cc(-n2cncn2)ccc1C(=O)N(CC(F)(F)F)C(C)C,-21.05%
Cc1cc(C)nc(NC(=O)C(C)Oc2ccc3c(c2)OCO3)n1 (stereo unspecified),-4.393%
CC(C)N(CCNc1nc(C2CCCC2)nc2c1cnn2C)C(C)C,79.72%
COc1ccc(NC(=O)NC(C)(C)c2noc(C)n2)cc1,-19.04% & 0.3578%
Cc1cnn(CC2CCCN2Cc2nccn2CC(F)(F)F)c1 (stereo unspecified),5.328%
CCNc1nnc(SCc2nnc(C(C)(C)C)o2)s1,-34.93%
COc1ccc(S(=O)(=O)Nc2cnc(N(C)C)nc2)cc1,10.16%
O=C1NCC2(CCCN(C(=O)c3c[nH]nc3C3CCCCC3)C2)O1 (stereo unspecified),-1.567% & -6.275%
COC1CCN(C(=O)Cn2ccc3ccccc32)CC1,-18.84% & -6.288%
CC(=O)N1CCCc2ccc(S(=O)(=O)N3CCCCC3C)cc21 (stereo unspecified),7.973%
CCCn1c(O)nnc1SCC1OCCc2ccccc21 (stereo unspecified),-8.566%
O=S1(=O)CCCN1Cc1coc(-c2cccs2)n1,-2.994% & -1.886%
NC(=O)NC(=O)CN1CCN(c2nccs2)CC1,15.63%
CN(C)c1cc(C(=O)Nc2ccccc2C(=O)NC(C)(C)C)ccn1,13.28% & 13.85%
Cc1ccsc1[C@@H]1CCN(C(=O)CCOc2ccccc2)C[C@H]1O,-11.29% & 56.84%
Cc1c(C(=O)NC2CCCOC2)nnn1-c1ccccc1 (stereo unspecified),-12.39%
O=C(NCC1CCCCO1)c1ccc(-c2cccs2)[nH]c1=O (stereo unspecified),6.231%
CCC(C)NS(=O)(=O)c1ccc(C(=O)N(C)C2(C#N)CCC2)cc1 (stereo unspecified),-22.57%
CN(C)C(=O)CCNC(=O)Nc1cccc(Cl)c1-n1cccn1,-13.85%

The last 4 entries again:

Cc1c(C(=O)NC2CCCOC2)nnn1-c1ccccc1 (stereo unspecified) gave -12.39%.
O=C(NCC1CCCCO1)c1ccc(-c2cccs2)[nH]c1=O (stereo unspecified) gave 6.231%.
CCC(C)NS(=O)(=O)c1ccc(C(=O)N(C)C2(C#N)CCC2)cc1 (stereo unspecified) gave -22.57%.
CN(C)C(=O)CCNC(=O)Nc1cccc(Cl)c1-n1cccn1 gave -13.85%.

From ChEMBL document CHEMBL3988442, “University of Dundee, Small-Polar-MMV Screening Library” (2021).